The source of these data is ChEMBL document CHEMBL1135687, “Metal-dependent inhibition of HIV-1 integrase” (J Med Chem, 2002).

The experiment deals with Human immunodeficiency virus 1. The experiment is described as follows: Cytotoxic concentration.

In general, CC50 refers to the concentration giving 50% cytotoxicity. Read a high CC50 as better tolerance by the cells.

As to `O=C(NNC(=O)c1ccccc1SSc1ccccc1C(=O)NNC(=O)c1ccccc1S)c1ccccc1S`, the CC50 was 34 µM.
As to `O=C(NNC(=O)c1ccccc1S)c1ccccc1S` [BIS(THIOSALICYL)HYDRAZIDE], the CC50 turned out to be 14.4 µM.
